Results of unrelated studies side by side (data: NIAID ChemDB).

Shared fields: target-level tests; species: HIV-1; protein: Reverse transcriptase; read-out: IC50

ICn is the concentration giving n% inhibition. Blank or dashed fields: not listed here. Neighbouring rows are from separate reports.

smiles | strain | changes | value
Cc1cc(C)c2nc(-c3c(F)cccc3F)n(Cc3c(F)cccc3F)c2c1 |  |  | >10 µM
O=C1N=S(=O)(c2ccccc2)c2ccccc2N1 |  |  | 11.3 µM
Cc1cccc2sc(NC(=S)N[C@H](C)c3ccccc3)nc12 |  |  | 8.7 µM
CCOc1ccccc1N1CCN(C(=O)c2cc3cc4c(cc3[nH]2)OCO4)CC1 | IIIB | RT-P236L | >50 µM
Cc1cc(C)nc(NC(=S)NCCc2ccc(Br)s2)c1 |  |  | >100 µM
C[C@H](Cn1cnc2c(N)ncnc21)OCP(=O)(O)O |  |  | >100 µM
CCC(NC(=S)Nc1ccc(Cl)cn1)c1ccccc1 |  |  | 3.4 µM
Cc1ccccc1S(=O)(=O)c1cccc(N)c1C#N |  |  | 13 µM
CN(C)P(=O)(c1ccccc1)c1c(C(N)=O)[nH]c2ccc(Cl)cc12 |  | RT-K103N | >3.57 µM
Cc1ccc2c(c1)nc(-c1c(F)cccc1F)n2Cc1c(F)cccc1F |  |  | >10 µM
Fc1cccc(F)c1COCc1nc2ccccc2n1Cc1c(F)cccc1F |  |  | >10 µM
CCOc1ccccc1N1CCN(C(=O)c2cc3ccccc3[nH]2)CC1 | IIIB | RT-P236L | >50 µM
Cc1cccc2c1nc(-c1ccc3ccccc3c1)n2Cc1c(F)cccc1F |  |  | >10 µM
Cc1csc(NC(=S)NC[C@@H](C)c2ccccc2)n1 |  |  | >100 µM
O=C(OC1[C@H](OC(=O)c2cc(O)c(O)c(O)c2)CC(O)(C(=O)O)C[C@H]1OC(=O)c1cc(O)c(O)c(O)c1)c1cc(O)c(O)c(O)c1 | IIIB |  | 2 µg/mL
N#Cc1c(N)cccc1S(=O)(=O)c1ccc(Br)cc1 |  |  | 0.2 µM
CNc1ccc(Cl)cc1S(=O)(=O)c1ccccc1[N+](=O)[O-] |  | RT-Y188L | >100 µM
Nc1nc2c(ncn2[C@H]2CC[C@@H](COP(=O)(O)OP(=O)(O)OP(=O)(O)O)O2)c(=O)[nH]1 |  |  | 0.075 µM
CC(C)=CCOc1cc(NC(=S)c2ccsc2C)ccc1Cl |  |  | 0.02 µg/mL
Fc1cccc(F)c1Cn1c(-c2c(F)cccc2F)nc2cc(Cl)ccc21 |  |  | ~10 µM
Nc1nc2c(ncn2CCOCP(=O)(O)OP(=O)(O)OP(=O)(O)O)c(=O)[nH]1 |  |  | 3.7 µM
CSC1SC[C@H]2C(=O)N(C)[C@@H](C(C)C)C(=O)OC[C@@H](NC(=O)c3cnc4ccccc4n3)C(=O)N[C@H](C)C(=O)N(C)[C@@H]1C(=O)N(C)[C@@H](C(C)C)C(=O)OC[C@@H](NC(=O)c1cnc3ccccc3n1)C(=O)N[C@H](C)C(=O)N2C | IIIB |  | 700 µM
Cc1cc(Cl)cc(S(=O)(=O)c2cccc(N)c2C#N)c1 |  |  | 0.003 µM
C[C@H](Cn1cnc2c(=O)[nH]c(N)nc21)OCP(=O)(O)O |  |  | >100 µM
Cc1cn([C@@H]2O[C@H](CO[Si](C)(C)C(C)(C)C)C3(OS(=O)(=O)C=C3N)[C@H]2O[Si](C)(C)C(C)(C)C)c(=O)n(C)c1=O |  |  | 2.6 µM
CC(C)Nc1cccnc1N1CCN(C(=O)c2cc3cc4c(cc3[nH]2)OCO4)CC1 | IIIB |  | 0.44 µM
S=C(NCCc1ccc(Br)s1)Nc1nccs1 |  |  | 10 µM
Cc1ccc2c(nc(-c3c(F)cccc3F)n2Cc2c(F)cccc2F)c1C |  |  | >10 µM
CCc1c(Sc2ccccn2)n(COCc2ccccc2)c(=O)[nH]c1=O |  | RT-K103N | 20 µM
COc1ccc(Sc2nc(Cc3c(Cl)cccc3Cl)c(C)c(=O)[nH]2)cn1 |  | Y181I | >400 µM
Cc1occc1C(=S)Nc1ccc(Cl)c(/C=N/OC(C)(C)C)c1 |  |  | 0.1 µg/mL
CC[C@H]1CN2CCc3cc(OC)c(OC)cc3[C@@H]2C[C@@H]1CC1=NCCc2cc(OC)c(OC)cc21 |  |  | 348 µM
Cc1c(Sc2ccccc2)n(COCCO)c(=O)[nH]c1=O |  | RT-V108I | ~1 µM
C[C@H](Cn1cnc2c(N)ncnc21)OCP(=O)(O)OP(=O)(O)OP(=O)(O)O |  |  | 25 µM
O=c1cc(Cc2c(F)cccc2F)nc(SC2CCCC2)[nH]1 |  |  | 600 µM
Nc1nc2c(ncn2[C@H]2CC[C@@H](COP(=O)(O)OP(=O)(O)OP(=O)(O)O)O2)c(=O)[nH]1 |  |  | 0.074 µM
COc1cc(C(F)(F)F)cc(S(=O)(=O)c2cccc(N)c2C#N)c1 |  |  | 0.01 µM
Cc1ccc(NC(=S)NCCc2ccc(Br)s2)nc1 |  |  | 0.6 µM
COc1ccc(Sc2nc(Cc3c(Cl)cccc3Cl)c(C)c(=O)[nH]2)cc1 |  | Y181I | >400 µM
Nc1nc2c(ncn2[C@H]2CC[C@@H](CO)O2)c(=O)[nH]1 |  |  | >1000 µM
N#Cc1c(N)cccc1S(=O)(=O)c1ccc(Cl)cc1 |  |  | 0.4 µM
Oc1c(Cl)cc(Cl)cc1-c1c(Cl)cc(Cl)c(Oc2ccc(Cl)cc2Cl)c1O |  |  | 54 µM
S=C(NCCc1ccc(Br)s1)Nc1ccc(Cl)cn1 |  |  | 0.1 µM
C=C(Cn1cnc2c(=O)[nH]c(N)nc21)OCP(=O)(O)OP(=O)(O)OP(=O)(O)O |  |  | 1.9 µM
Cc1c(Cc2c(Cl)cccc2Cl)nc(Sc2ccc(F)cc2F)[nH]c1=O |  | Y181I | >400 µM
C/C=C/CSc1cc(NC(=S)c2ccsc2C)ccc1Cl |  | RT-L74V | 7.8 µM
O=S(=O)(c1ccccc1)n1c(-c2c(F)cccc2F)nc2ccccc21 |  |  | ~10 µM
COc1c(O)c(I)c2c(c1OC)-c1c(c(I)c(O)c(OC)c1OC)C[C@H](C)[C@H](C)C2 |  |  | 0.8 µM
Cc1c(Cc2c(Cl)cccc2Cl)nc(Sc2ccc(C#N)cc2)[nH]c1=O |  | Y181I | >400 µM
O=C(OC1COc2ccccc2C1)c1cc(O)c(O)c(O)c1 |  |  | >100 µM
O=[N+]([O-])c1ccc2c(c1)nc(-c1c(F)cccc1F)n2Cc1c(F)cccc1F |  |  | >10 µM
Cc1occc1C(=S)Nc1ccc(Cl)c(/C=N/OC(C)(C)C)c1 |  |  | 5.5 µM
Cc1cccc2c1nc(-c1cccnc1)n2Cc1c(F)cccc1F |  |  | >10 µM
CCC(NC(=S)Nc1nc2ccccc2s1)c1ccccc1 |  |  | >100 µM
Cc1cn([C@@H]2C[C@H](O)[C@@H](COP(=O)(O)O)O2)c(=O)[nH]c1=O |  |  | >100 µM
CC[C@H]1CN2CCc3cc(OC)c(OC)cc3[C@@H]2C[C@@H]1CC1=NCCc2cc(O)c(OC)cc21.O=C(O)C(=O)O |  |  | 404 µM
Cc1cccc2c1nc(-c1c(F)cccc1F)n2Cc1cccnc1 |  |  | <10 µM
CSC1N=S(=O)(c2ccccc2)c2ccccc2N1 |  |  | >0.3 µM
Cc1c(Cc2c(F)cccc2F)nc(Sc2ccc(F)cc2F)[nH]c1=O |  | Y181I | >400 µM
Cc1cc(C)c2nc(-c3c(F)cccc3F)n(Cc3c(F)cccc3F)c2c1 |  |  | >10 µM
O=S1(c2cccc(Cl)c2)=NC(=S)Nc2ccc(Cl)cc21 |  |  | 0.03 µM
Nc1ncnc2c1ncn2[C@H]1CC[C@@H](COP(=O)(O)OP(=O)(O)OP(=O)(O)O)O1 | HXB2 |  | 6.2 µM

For reference, 6 entries again:

{"smiles": "Cc1c(Cc2c(F)cccc2F)nc(Sc2ccc(F)cc2F)[nH]c1=O", "changes": "Y181I", "value": ">400 µM"}
{"smiles": "Nc1nc2c(ncn2[C@H]2CC[C@@H](COP(=O)(O)OP(=O)(O)OP(=O)(O)O)O2)c(=O)[nH]1", "value": "0.075 µM"}
{"smiles": "Cc1ccc2c(nc(-c3c(F)cccc3F)n2Cc2c(F)cccc2F)c1C", "value": ">10 µM"}
{"smiles": "Cc1csc(NC(=S)NC[C@@H](C)c2ccccc2)n1", "value": ">100 µM"}
{"smiles": "CSC1N=S(=O)(c2ccccc2)c2ccccc2N1", "value": ">0.3 µM"}
{"smiles": "O=C(OC1COc2ccccc2C1)c1cc(O)c(O)c(O)c1", "value": ">100 µM"}